A mixed list of measured activities; the numbers were collected in NIAID ChemDB.

Shared fields: tests in culture; species: HIV-2; cell line: CEM + CEM/O; measure: EC50

Blank or dashed fields: not listed here. ECn: concentration that inhibits the pathogen or its effect by n%. Conditions beyond the fields shown may differ between rows.

| structure | strain or isolate | read by | value |
|---|---|---|---|
| CCCCCCCCCCCCOP(=O)(O)OC[C@H]1O[C@@H](n2cc(C)c(=O)[nH]c2=O)C[C@@H]1N=[N+]=[N-] | ROD | syncytia | 0.64 µM |
| COC(=O)CCc1cccc2c1OP(=O)(OC[C@@H]1C=C[C@H](n3cc(C)c(=O)[nH]c3=O)O1)OC2 | LAV-2 | syncytia | 0.25 µM |
| Cc1cn([C@H]2C=C[C@@H](COP(=O)(OCc3ccccc3)OCc3ccccc3)O2)c(=O)[nH]c1=O | ROD | cytopathic effect / syncytia | 18.3 µM |
| Cc1cccc2c1OP(=O)(OC[C@H]1O[C@@H](n3cc(C)c(=O)[nH]c3=O)C[C@@H]1N=[N+]=[N-])OC2 | - | - | 0.013 µM |
| COC(=O)[C@H](C)NP(=O)(OC[C@@H]1C=C[C@H](n2cc(C)c(=O)[nH]c2=O)O1)Oc1ccccc1 | ROD | syncytia | 0.102 µM |
| Cc1cn([C@H]2C=C[C@@H](COP3(=O)OCc4cc(-c5ccccc5)ccc4O3)O2)c(=O)[nH]c1=O | - | - | 0.47 µM |
| CCCCCCCCCCCCCCOCCOP(=O)(O)OC[C@H]1O[C@@H](n2cc(C)c(=O)[nH]c2=O)C[C@@H]1N=[N+]=[N-] | ROD | syncytia | 0.144 µM |
| Cc1cn([C@H]2C=C[C@@H](COP3(=O)Oc4ccccc4C(C(Cl)(Cl)Cl)O3)O2)c(=O)[nH]c1=O | - | - | 0.6 µM |
| Cc1cn([C@H]2C=C[C@@H](COP3(=O)OCc4cc5ccccc5cc4O3)O2)c(=O)[nH]c1=O | ROD | syncytia | 0.5 µM |
| COC(=O)CCNP(=O)(OC[C@@H]1C=C[C@H](n2cc(C)c(=O)[nH]c2=O)O1)Oc1ccccc1 | ROD | syncytia | 6 µM |
| CCCCCCCCCCCCCCCCOP(=O)(O)OC[C@H]1O[C@@H](n2cc(C)c(=O)[nH]c2=O)C[C@@H]1N=[N+]=[N-] | ROD | syncytia | 0.17 µM |
| Cc1cn([C@H]2C=C[C@@H](COP(=O)(O[C@H](C)c3ccccc3)O[C@H](C)c3ccccc3)O2)c(=O)[nH]c1=O | ROD | cytopathic effect / syncytia | 100 µM |
| Cc1cn([C@H]2C=C[C@@H](CO)O2)c(=O)[nH]c1=O | ROD | syncytia | 0.35 µM |
| Cc1cn([C@H]2C=C[C@@H](COP3(=O)OCc4c(ccc5ccccc45)O3)O2)c(=O)[nH]c1=O | - | - | 0.17 µM |
| Cc1cn([C@H]2C=C[C@@H](CO)O2)c(=O)[nH]c1=O | LAV-2 | syncytia | 0.24 µM |
| COC(=O)CC(OP(=O)(OC[C@@H]1C=C[C@H](n2cc(C)c(=O)[nH]c2=O)O1)OC(CC(=O)OC)c1ccccc1)c1ccccc1 | ROD | cytopathic effect / syncytia | 8 µM |
| Cc1cn([C@H]2C[C@H](N=[N+]=[N-])[C@@H](COP3(=O)OCc4cc([N+](=O)[O-])ccc4O3)O2)c(=O)[nH]c1=O | - | - | 0.02 µM |
| Cc1cccc2c1OP(=O)(OC[C@@H]1C=C[C@H](n3cc(C)c(=O)[nH]c3=O)O1)OC2 | ROD | syncytia | 0.19 µM |
| Cc1cn([C@H]2C[C@H](N=[N+]=[N-])[C@@H](COP3(=O)OCc4cc(Cl)ccc4O3)O2)c(=O)[nH]c1=O | - | - | 0.006 µM |
| Cc1cn([C@H]2C=C[C@@H](COP3(=O)Oc4ccccc4C(CCl)O3)O2)c(=O)[nH]c1=O | - | - | 0.35 µM |
| CC(=O)Oc1ccc(COP(=O)(OCc2ccc(OC(C)=O)cc2)OC[C@@H]2C=C[C@H](n3cc(C)c(=O)[nH]c3=O)O2)cc1 | ROD | cytopathic effect / syncytia | 0.33 µM |
| Cc1ccc2c(c1)COP(=O)(OC[C@H]1O[C@@H](n3cc(C)c(=O)[nH]c3=O)C[C@@H]1N=[N+]=[N-])O2 | - | - | 0.006 µM |

Repeating the final 3 entries:

| structure | strain or isolate | read by | value |
|---|---|---|---|
| Cc1cn([C@H]2C=C[C@@H](COP3(=O)Oc4ccccc4C(CCl)O3)O2)c(=O)[nH]c1=O | - | - | 0.35 µM |
| CC(=O)Oc1ccc(COP(=O)(OCc2ccc(OC(C)=O)cc2)OC[C@@H]2C=C[C@H](n3cc(C)c(=O)[nH]c3=O)O2)cc1 | ROD | cytopathic effect / syncytia | 0.33 µM |
| Cc1ccc2c(c1)COP(=O)(OC[C@H]1O[C@@H](n3cc(C)c(=O)[nH]c3=O)C[C@@H]1N=[N+]=[N-])O2 | - | - | 0.006 µM |